Article PMC8746574 (Molecules, 2022)

System: TZM-bl cells
Assay: MTT cytotoxicity assay in TZM-bl cells
Assay type: cell-based
Details: MTT test, 72 h incubation
Protocol: The cytotoxicity of the obtained compounds was assessed in TZM-bl cells using the MTT test. The preparations were diluted with DMEM medium so that their starting concentration was 1000 μM and the final volume of DMSO was no more than 1%. Additionally, we compared the cytotoxicity of DMEM and medium with 1% DMSO in TZM-bl cells and found no significant differences in cell survival. The measured CC50 values ranged from 7.8 to over 1000 μM (Table 2). […] A range of non-toxic concentrations was determined for each compound and used in subsequent experiments on their antiviral activity.
TZM-bl cells were seeded into 96-well culture plates (100 μL of cell suspension or 10^4 p cells per well) and placed in a CO2 incubator. The test compounds were dissolved in DMSO at a concentration of 100 mM. After 24 h of incubation, various concentrations of the test compounds (1000, 500, 250, 125, 62.5, 31.25, and 15.6 μM) were added by titration to the TZM-bl cell culture, in triplicates. DMSO was added to the control wells at a concentration of no more than 1%. […] The optical density of each well was determined at 570 nm using a Varioscan LUX plate reader (Thermo scientific). The survival rate of TZM-bl cells in the presence of the tested compounds was calculated using the formula: (OD of experimental wells—OD of medium)/(OD of control wells—OD of medium) × 100%, where OD is optical density.

Maraviroc [MVC] was tested, and the CC50 was greater than 1000 µM.
